Anti-infective test results gathered from many reports (values: NIAID ChemDB through PubChem).

All rows: whole-cell or culture tests; organism: Aspergillus flavus; measure: zone

Neighbouring rows are from separate reports.

smiles | strain or isolate | read by | dose | result
O=C(CNC(=O)c1ccncc1)NN1C(=O)CSC1c1ccccc1Br | - | agar diffusion | 50 µg/mL | 14 mm
CN(C)C=O | - | - | 30 µg/mL | 6 mm
O=C(CNC(=O)c1ccncc1)NN1C(=O)CSC1c1cccc(Br)c1 | - | agar diffusion | 100 µg/mL | 18 mm
O=C(NN1C(=O)CSC1C1C(c2ccccc2)=Nc2ccc(Cl)cc21)N1c2ccccc2C=Cc2ccccc21 | MTCC-1973 | agar diffusion | 500 µg/mL | 12 mm
COc1ccccc1/C=C1\SC(c2ccccc2OC)N(NC(=O)CNC(=O)c2ccncc2)C1=O | - | agar diffusion | 50 µg/mL | 10 mm
Cn1c(=O)c(-c2[nH][nH]c(=O)c2C=Nc2ccncc2)c(O)c2ccccc21 | ATCC 28542 | agar diffusion | 1 mg/mL | 14 mm
Cc1ccc(/C=C2\SC(c3ccc(C)cc3)N(NC(=O)CNC(=O)c3ccncc3)C2=O)cc1 | - | agar diffusion | 100 µg/mL | 10.6 mm
Cn1c(=O)c(-c2[nH][nH]c(=O)c2N=Nc2ccccc2Br)c(O)c2ccccc21 | ATCC 28542 | agar diffusion | 1 mg/mL | 12 mm
CC(=Nc1cccc2cccc(N=C(C)c3c(O)ccc4c(C)cc(=O)oc34)c12)c1c(O)ccc2c(C)cc(=O)oc12 | MTCC 1883 | - | 500 µg/mL | 24 mm
COc1ccc(/C=c2\c(=O)[nH][nH]\c2=C2/C(=O)c3ccccc3N(C)C2=O)cc1OC | ATCC 28542 | agar diffusion | 1 mg/mL | 11 mm
Cc1ccc2c(c1)C(C1SCC(=O)N1NC(=O)N1c3ccccc3C=Cc3ccccc31)C(c1ccccc1)=N2 | MTCC-1973 | agar diffusion | 500 µg/mL | 2 mm
COc1ccccc1/C=c1\c(=O)[nH][nH]\c1=C1/C(=O)c2ccccc2N(C)C1=O | ATCC 28542 | agar diffusion | 1 mg/mL | 11 mm
Cc1ccc(C2SCC(=O)N2NC(=O)CNC(=O)c2ccncc2)cc1 | - | agar diffusion | 100 µg/mL | 12 mm
Cn1c(=O)c(-c2[nH][nH]c(=O)c2N=Nc2cccc(Cl)c2)c(O)c2ccccc21 | ATCC 28542 | agar diffusion | 1 mg/mL | 15 mm
O=C(NN=CC1C(c2ccccc2)=Nc2ccc(Cl)cc21)N1c2ccccc2C=Cc2ccccc21 | MTCC-1973 | agar diffusion | 500 µg/mL | 12 mm

A second listing of 2 rows from above:

smiles	strain or isolate	read by	dose	result
Cn1c(=O)c(-c2[nH][nH]c(=O)c2C=Nc2ccncc2)c(O)c2ccccc21	ATCC 28542	agar diffusion	1 mg/mL	14 mm
COc1ccccc1/C=C1\SC(c2ccccc2OC)N(NC(=O)CNC(=O)c2ccncc2)C1=O	-	agar diffusion	50 µg/mL	10 mm

Zones are inhibition diameters on agar. An empty or dashed field is not shown.